Measured values from several laboratories, pooled; numbers as filed in NIAID ChemDB.

Common to all: whole-cell or culture tests

Percent inhibition refers to the dose given; in toxicity tests it is the harm to the cells. Lines come from different laboratories, so protocols vary. Blank or dashed fields: not listed here. ECn is the concentration giving n% inhibition of infection, replication or growth.

SMILES	organism	strain or isolate	cells	read by	setting	endpoint	dose	result
Nc1nc2c(ncn2CCC(CO)CO)c(=O)[nH]1	Human herpesvirus 6	729	HUMAN CORD BLOOD CELL	antigen	6 d	inhibition	50 µM	12%
Nc1ncnc2c1cnn2C[C@@H](CO)OCP(=O)(O)O	Human herpesvirus 6	GS	HSB-2	antigen / flow cytometry		EC50		>10 µM
Nc1nc2c(ncn2CCC(CO)CO)c(=O)[nH]1	Human herpesvirus 7		SupT1	syncytia		EC50		>170 µM
CC(C)Nc1nc2cc(Cl)c(Cl)cc2n1[C@H]1O[C@@H](CO)[C@H](O)[C@@H]1O	Human cytomegalovirus	AD169	MRC-5	plaque count		EC90		23.56 µM
O=C(O)P(=O)(O)O	Human herpesvirus 7		CD4+ T lymphocytes	syncytia		EC50		7.6 µg/mL
N#Cc1cn([C@@H]2O[C@H](CO)C[C@H]2O)c2ncnc(N)c12	Human cytomegalovirus		HFF	virus yield		EC90		1.4 µM
Nc1nccc2c1ncn2[C@@H]1C[C@H](CO)[C@@H](O)[C@H]1O	Human coronavirus	229E 229E	WI-38	cytopathic effect		EC50		150 µg/mL
O=C([O-])CN(CCN(CC(=O)[O-])CC(=O)[O-])CCN(CC(=O)[O-])CC(=O)[O-].[Ca+2].[Na+].[Na+].[Na+]	Human cytomegalovirus	AD169	HEL	plaque count		EC50		4.53 µg/mL
Nc1nc2c(ncn2C[C@]2(CO)C[C@H]2CO)c(=O)[nH]1	Human herpesvirus 6		Human cord blood lymphocytes	cytopathic effect		EC50		0.19 µM
Nc1nc2c(ncn2COC(CO)CO)c(=O)[nH]1	Human herpesvirus 7		SupT1	syncytia		EC50		>50 µg/mL
NC(=O)c1ncn([C@@H]2O[C@H](CO)[C@@H](O)[C@H]2O)n1	Human rhinovirus	HRV2	HeLa			EC50		87.04 µg/mL
O=c1[nH]c(=O)n([C@H]2C[C@H](O)[C@@H](CO)O2)cc1/C=C/Br	Human herpesvirus 7		CD4+ T lymphocytes	syncytia		EC50		>90 µg/mL
O=C(O)C[C@H](NCCN[C@@H](CC(=O)O)C(=O)O)C(=O)O	Human cytomegalovirus	U9070 (ganciclovir-resistant)	HEL	plaque count		EC50		7.9 µg/mL
Nc1nc2c(ncn2CCOCP(=O)(O)O)c(=O)[nH]1	Human herpesvirus 6	GS	HSB-2	antigen / flow cytometry		EC50		1.5 µM
Nc1nc2c(ncn2COC(CO)CO)c(=O)[nH]1	Human cytomegalovirus	CMV5USA	HEL	plaque count		EC50		0.7 µg/mL
C[C@H](Cn1cnc2c(N)ncnc21)OCP(=O)(O)O	Human herpesvirus 7		SupT1	syncytia		EC50		>250 µg/mL
Nc1ncnc2c1ncn2C[C@H]1COP(=O)(O)CO1	Human herpesvirus 6	GS	HSB-2	antigen / flow cytometry		EC50		32 µM
Nc1nc2c(ncn2CCC(CO)CO)c(=O)[nH]1	Human herpesvirus 7		SupT1	syncytia		EC50		>170 µg/mL
CCC#Cc1ccc2c(c1)c(=O)c(C(=O)NCc1ccc(Cl)cc1)nn2C	Human cytomegalovirus					inhibition	20 µM	90%

For reference, 2 entries again:

{"SMILES": "O=C([O-])CN(CCN(CC(=O)[O-])CC(=O)[O-])CCN(CC(=O)[O-])CC(=O)[O-].[Ca+2].[Na+].[Na+].[Na+]", "organism": "Human cytomegalovirus", "strain or isolate": "AD169", "cells": "HEL", "read by": "plaque count", "endpoint": "EC50", "result": "4.53 µg/mL"}
{"SMILES": "Nc1ncnc2c1ncn2C[C@H]1COP(=O)(O)CO1", "organism": "Human herpesvirus 6", "strain or isolate": "GS", "cells": "HSB-2", "read by": "antigen / flow cytometry", "endpoint": "EC50", "result": "32 µM"}